Pooled drug test results. Numbers come from NIAID ChemDB, via PubChem.

Shared fields: tests in culture; organism: Mycobacterium tuberculosis

Percent inhibition refers to the dose given; in toxicity tests it is the harm to the cells. MIC50, MIC90 and the like: level of inhibition, or share of isolates inhibited. ECn: concentration that inhibits the pathogen or its effect by n%. An empty or dashed field is not shown. Two numbers with a dash give a range or band. Lines come from different laboratories, so protocols vary. MIC bound: limit read from a one-dose screen.

compound	changes	read-out	dose	cells	method	strain	value
NNC(=O)CCCCCC(=O)O		MIC				H37Rv	50 µg/mL
COc1ccc2c(c1)c(=O)c1c(NCCN(C)C)ccc3nnn2c31		inhibition	12.5 µg/mL		BACTEC	H37Rv	95%
COC(=O)/C1=C/c2c([nH]c3ccc(F)cc23)/C(C(=O)OC)=C\c2c1[nH]c1ccc(F)cc21		EC50			resazurin / absorbance	H37Rv	1.68 µM
C[C@H]1[C@H](C)CC[C@]2(C(=O)O)CC[C@]3(C)C(CC[C@@H]4[C@@]5(C)C[C@H](O)CC(C)(C)[C@@H]5CC[C@]43C)[C@H]12		MIC			resazurin	MTY147	25 µg/mL
COc1cc(Cc2cnc(/N=C3\C(=O)N(CN(C)C)c4ccc(F)cc43)nc2N)cc(OC)c1OC		inhibition	6.25 µg/mL			H37Rv	19%
CC[C@@H]1CCN[C@H](C(=O)NC(C2O[C@H](SC)[C@H](O)[C@@H](O)[C@H]2O)[C@H](C)Cl)C1		MIC			turbidity	H37Rv	>200 µg/mL
COC(=O)C(C)(C)NC(=O)C(Cc1ccccc1)NC(=O)C(C)(C)NC(=O)OCc1ccccc1		MIC bound			BACTEC	H37Rv	>12.5 µg/mL
NNC(=O)CCC1=NNC(=O)CC1		MIC				H37Rv	>500 µg/mL
CN(C)C(=O)Nc1c([N+](=O)[O-])cc(C(F)(F)F)cc1[N+](=O)[O-]		MIC			BACTEC	H37Rv	6.25 µg/mL
COc1cc(Cc2cnc(/N=C3\C(=O)N(CN4CCN(Cc5ccccc5)CC4)c4ccc(F)cc43)nc2N)cc(OC)c1OC		inhibition	6.25 µg/mL			H37Rv	37%
O=C(O)CCC1=NNC(=O)CC1		MIC				H37Rv	>1000 µg/mL
CCN(CC)c1ccc2nc3ccc(N=Nc4ccc(N(C)C)cc4)cc3[n+](-c3ccccc3)c2c1		MIC bound			resazurin	H37Rv	<6.25 µg/mL
COc1cc(Cc2cnc(/N=C3\C(=O)N(CN4CCCC4)c4ccc(F)cc43)nc2N)cc(OC)c1OC		inhibition	6.25 µg/mL			H37Rv	36%
CCCCS(=O)(=O)Nc1ccc2[nH]c(C(N)=O)c(C)c2c1	P206T DG167-resistant	MIC90			resazurin	DRM167 32x2	>100 µM
NNC(=O)CCC1CCC(=O)N1		MIC				H37Rv	>50 µg/mL
Cc1ncc([N+](=O)[O-])n1CCO		MIC			turbidity	H37Rv	>200 µg/mL
OC(c1ccncc1)(c1ccc(Cl)cc1)c1cccs1		inhibition	6.25 µg/mL			H37Rv	2%
CCn1cc(C(=O)O)c(=O)c2cc(F)c(N3CCN(C/C(=N/O)c4ccco4)CC3)cc21		inhibition	6.25 µg/mL			H37Rv	29%
CCN(CC)c1c(C)nnc2c3c(-c4ccccc4)c(-c4ccccc4)nnc3nn12		inhibition	6.25 µg/mL		resazurin	H37Rv	36%
CCCCc1cnc(C(=O)/C=C/c2ccc(O)c(OC)c2)cn1		EC50				H37Rv	>12.5 µg/mL
CCC1CN(c2c(F)cc3c(=O)c(C(=O)O)cn(C4CC4)c3c2OC)CCN1		MIC				TN565 (D94H)	0.7 µg/mL
NC(CCC(N)C(=O)O)C(=O)O		MIC				H37Rv	>1000 µg/mL
O=C(O)/C=C/c1ccccc1		MIC				H37Rv	100 µg/mL
OC[C@H]1O[C@@H](n2cnc3c(-c4ccccc4)ncnc32)[C@H](O)[C@@H]1O		EC50				H37Rv	>6.25 µg/mL
CCCCS(=O)(=O)Nc1ccc2[nH]c(C(=O)NCc3ccc(F)cc3F)c(C)c2c1		MIC90			resazurin	H37Rv	>100 µM
COc1ccc(C(=O)Nn2c(C)nc3scc(-c4ccco4)c3c2=O)cc1		MIC				CNCTC MY331/88	9 µM
O=C(O)c1cn(C2CC2)c2cc(N3CCN(C/C(=N/O)c4ccco4)CC3)c(F)cc2c1=O		MIC				H37Rv	>6.25 µg/mL
CCOC(=O)c1c(SCc2cc(=O)[nH]c(=O)[nH]2)n(-c2ccccc2)c(=S)n(-c2ccccc2)c1=O		inhibition	12.5 µg/mL		BACTEC	H37Rv	0%
Cc1cc(-c2cc3c(cc2F)c(=O)c(C(=O)O)cn3C2CC2)cc(C)n1		MIC				1024-8	0.5 µg/mL
OC[C@H]1O[C@@H](n2c(N3CCOCC3)nc3ccccc32)[C@H](O)[C@@H]1O		MIC bound			resazurin	H37Rv	>6.25 µg/mL
C[C@H]1COc2c(N3CCN(C)CC3)c(F)cc3c(=O)c(C(=O)O)cn1c23		MIC				T10904	0.5 µg/mL
O=c1oc2ccc(Cl)cc2c(=O)n1-c1cc(Cl)ccc1[N+](=O)[O-]		MIC bound				H37Rv	>6.25 µg/mL
Cc1nc2scc(-c3ccco3)c2c(=O)n1NC(=O)c1ccc(F)cc1F		MIC				CNCTC MY331/88	15 µM
CCCCS(=O)(=O)Nc1ccc2[nH]c(C(=O)NC3CCCc4ccccc43)c(C)c2c1		MIC90			resazurin	H37Rv	6.25 µM
CCn1cc(C(=O)O)c(=O)c2cc(F)c(N3CCN(CN4C(=O)/C(=N\c5ncc(Cc6cc(OC)c(OC)c(OC)c6)c(N)n5)c5cc(F)ccc54)C(C)C3)c(F)c21		EC50				H37Rv	<6.25 µg/mL
CC1CCN(C(=S)S)CC1.CC1CCNCC1		MIC				ETA-R	0.8 µg/mL
CC1COc2c(N3CCN(C)CC3)c(F)cc3c(=O)c(C(=O)O)cn1c23		MIC				90-0201 (DRUG-SUS)	0.5 µg/mL
Cc1nc2scc(-c3ccco3)c2c(=O)n1NC(=O)c1ccc(Cl)cc1Cl		MIC				CNCTC MY331/88	5 µM
C=C(C)/C=C/[C@]12C[C@H](C)[C@H]3CC[C@](C)(NC)[C@@H](CC[C@H]1C)[C@@H]32		inhibition	128 µg/mL			H37Rv	99%
Clc1nc(-c2ccccc2)c2ncn(Cc3ccccc3)c2n1		EC50				H37Rv	<6.25 µg/mL
CCCCS(=O)(=O)Nc1ccc2[nH]c(C(=O)Nc3ccc4ccccc4c3)c(C)c2c1		MIC90			resazurin	H37Rv	12.5 µM
COC(=O)/C1=C/c2c([nH]c3ccc(I)cc23)/C(C(=O)OC)=C\c2c1[nH]c1ccc(I)cc21		EC50			resazurin / absorbance	H37Rv	3.89 µM
O=C(O)C1C2CC3C(OC(=O)C31)C2NS(=O)(=O)c1ccccc1		inhibition	12.5 µg/mL		BACTEC	H37Rv	15%
Cc1nc2scc(-c3ccco3)c2c(=O)n1/N=C/c1ccc(Cl)cc1		MIC				CNCTC MY331/88	9 µM
CC(C)Cc1cnc(C(=O)/C=C/c2ccc(O)cc2)cn1		EC50				H37Rv	<12.5 µg/mL
NCC[C@H](O)C(=O)N[C@@H]1C[C@H](N)[C@@H](O[C@H]2O[C@H](CN)[C@@H](O)[C@H](O)[C@H]2O)[C@H](O)[C@H]1O[C@H]1O[C@H](CO)[C@@H](O)[C@H](N)[C@H]1O		MIC				92-0492 (MDR)	1 µg/mL
COc1cc(/C=C/C(=O)c2cnc(CC(C)C)cn2)ccc1O		EC50				H37Rv	<12.5 µg/mL
CC[C@@H](CO)NCCN[C@@H](CC)CO		MIC99			agar	mc(^2)7000	1–2.5 µg/mL
Cc1nc2scc(-c3ccco3)c2c(=O)n1/N=C/c1ccccc1		MIC				CNCTC MY331/88	52 µM
NNC(=O)CCCc1c(C(=O)NN)[nH]c2ccccc12		MIC				H37Rv	60 µg/mL
NCCCn1[nH]c(=O)c2cccnc2c1=O		MIC bound			resazurin	H37Rv	>6.25 µg/mL
CCC[C@@H]1C[C@@H](C(=O)N[C@@H]([C@H]2O[C@H](SC)[C@H](O)[C@@H](O)[C@H]2O)[C@H](C)Cl)N(C)C1		MIC			turbidity	H37Rv	>200 µg/mL
Clc1nc(-c2ccco2)c2ncn(C3CCOCC3)c2n1		EC50				H37Rv	>6.25 µg/mL
CO/N=C(/CN1CCN(c2cc3c(cc2F)c(=O)c(C(=O)O)cn3C2CC2)CC1)c1ccco1		MIC				H37Rv	>6.25 µg/mL
CN1C(=O)C(O)(C2=C3OCOC3=CC(=O)C2=O)c2ccccc21		inhibition	6.25 µg/mL		resazurin	H37Rv	-15%
NNC(=O)c1ccncc1		MIC				90-0201 (DRUG-SUS)	0.04 µg/mL
CN[C@@H]1[C@H](O)[C@H](NC)[C@H]2O[C@@]3(O)C(=O)C[C@@H](C)O[C@H]3O[C@@H]2[C@H]1O		MIC			turbidity	H37Rv	100–200 µg/mL
CCn1cc(C(=O)O)c(=O)c2cc(F)c(N3CCN(CN4C(=O)/C(=N\c5ncc(Cc6cc(OC)c(OC)c(OC)c6)c(N)n5)c5cc(F)ccc54)CC3)cc21		inhibition	6.25 µg/mL			H37Rv	100%
CCCCS(=O)(=O)Nc1ccc2[nH]c(C(=O)N3CCCCCC3)c(C)c2c1		MIC90			resazurin	H37Rv	25 µM
CC[C@H]1OC(=O)[C@H](C)[C@@H](O[C@H]2C[C@@](C)(OC)[C@@H](O)[C@H](C)O2)[C@H](C)[C@@H](O[C@@H]2O[C@H](C)C[C@H](N(C)C)[C@H]2O)[C@](C)(O)C[C@@H](C)C(=O)[C@H](C)[C@@H](O)[C@]1(C)O		MIC			turbidity	H37Rv	200–800 µg/mL
O=C(O)c1cn(C2CC2)c2cc(N3CCN(C/C(=N/OCc4ccccc4)c4ccco4)CC3)c(F)cc2c1=O		MIC				H37Rv	>6.25 µg/mL
CCCc1cnc(C(=O)/C=C/c2ccccc2O)cn1		EC50				H37Rv	12.5 µg/mL
Clc1nc(-c2cccs2)c2ncn(Cc3ccccc3)c2n1		EC50		VERO		H37Rv	<6.25 µg/mL
Nc1cc2c(cc1Br)[nH]c(=O)c1ccccc12		inhibition	12.5 µg/mL		BACTEC	H37Rv	92%
Cc1nc2scc(-c3ccco3)c2c(=O)n1NC(=O)c1ccccc1		MIC				CNCTC MY331/88	50 µM
CC(C)=CCc1c2c(c3occ(-c4ccc(O)c(O)c4)c(=O)c3c1O)C=CC(C)(C)O2		inhibition	128 µg/mL		BACTEC	H37Rv	100%
O=C(O)CCC(=O)CCC(=O)O		MIC				H37Rv	>400 µg/mL
COc1c(N2CCNC(C)C2)c(F)cc2c(=O)c(C(=O)O)cn(C3CC3)c12		MIC			turbidity	H37Rv	0.2 µg/mL
Nc1nc(-c2ccccc2)c(N=Nc2ccc([N+](=O)[O-])cc2Cl)s1		inhibition	6.25 µg/mL		BACTEC	H37Rv	0%
C[C@@H]1CN(c2c(F)c(N)c3c(=O)c(C(=O)O)cn(C4CC4)c3c2F)C[C@H](C)N1		EC50				TN606 (D94G)	1.1 µg/mL
CCn1cc(C(=O)O)c(=O)c2cc(F)c(N3CCN(C/C(=N/OC)c4ccco4)CC3)cc21		MIC				H37Rv	>6.25 µg/mL
CC(=O)Oc1c(C)c2c(O)c3c1C1=C(OCOC1=C(C)C3=O)/C(C)=C/[C@@](C)(O)[C@H](O)[C@@H](C)[C@@H](O)[C@H](C(=O)O)[C@H](O)[C@H](C)C(O)[C@H](C)/C=C\C=C(/C)C(=O)N2		MIC				RMP-R	>12.8 µg/mL
COc1cc(Cc2cnc(N)nc2N)cc(OC)c1OC		MIC			turbidity	H37Rv	>200 µg/mL
CSc1nc([N+](=O)[O-])c2cnccn12		MIC bound			resazurin	H37Rv	>6.25 µg/mL
COc1cc(Cc2cnc(/N=C3\C(=O)N(CN4CCN(c5cc6c(cc5F)c(=O)c(C(=O)O)cn6C5CC5)CC4)c4ccc(F)cc43)nc2N)cc(OC)c1OC		inhibition	6.25 µg/mL			H37Rv	100%
CCC1CN(c2cc3c(cc2F)c(=O)c(C(=O)O)cn3C2CC2)CCN1		MIC				TN1626 (WILD TYPE)	0.3 µg/mL
Cc1c2c(C(N)=O)nccc2c(C)c2c1c1ccccc1n2Cc1ccccc1		MIC bound			resazurin	H37Rv	>6.25 µg/mL
NNC(=O)c1ccncc1		MIC				5178	0.04–0.05 µg/mL
COC1=CC23CCCN2CCc2cc4c(cc2C3C1O)OCO4		inhibition	12.5 µg/mL		BACTEC	H37Rv	10%
CN(C)c1ccc(O)c2c1C[C@H]1C[C@H]3[C@H](N(C)C)C(=O)C(C(N)=O)=C(O)[C@@]3(O)C(=O)C1=C2O		MIC			turbidity	H37Rv	25 µg/mL
O=C(/C=C/c1ccccc1O)c1cnccn1		EC50				H37Rv	<12.5 µg/mL

7 of the rows above, restated:

NC(CCC(N)C(=O)O)C(=O)O ; read-out: MIC ; strain: H37Rv ; value: >1000 µg/mL
Clc1nc(-c2ccccc2)c2ncn(Cc3ccccc3)c2n1 ; read-out: EC50 ; strain: H37Rv ; value: <6.25 µg/mL
NNC(=O)CCC1=NNC(=O)CC1 ; read-out: MIC ; strain: H37Rv ; value: >500 µg/mL
OC[C@H]1O[C@@H](n2c(N3CCOCC3)nc3ccccc32)[C@H](O)[C@@H]1O ; read-out: MIC bound ; method: resazurin ; strain: H37Rv ; value: >6.25 µg/mL
CCCCc1cnc(C(=O)/C=C/c2ccc(O)c(OC)c2)cn1 ; read-out: EC50 ; strain: H37Rv ; value: >12.5 µg/mL
O=C(O)c1cn(C2CC2)c2cc(N3CCN(C/C(=N/O)c4ccco4)CC3)c(F)cc2c1=O ; read-out: MIC ; strain: H37Rv ; value: >6.25 µg/mL
OC[C@H]1O[C@@H](n2cnc3c(-c4ccccc4)ncnc32)[C@H](O)[C@@H]1O ; read-out: EC50 ; strain: H37Rv ; value: >6.25 µg/mL